Results: article PMC9603373 (Microbiology Spectrum, 2022)

Assays:
[1] = test system: daptomycin nonsusceptible Enterococcus faecium (NTUH688); assay: Rat infective endocarditis model, DNSE; assay type: in vivo; settings: MIC 8, group value repeated per rat; for auc_mic: AUC0–24/MIC; for cmax_mic: Cmax/MIC;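 for all read-outs here: Catheter-induced aortic valve endocarditis in male Wistar rats, treated 3 days, bacteria counted by plating vegetation and blood homogenates on brain heart infusion agar, control rats given phosphate-buffered saline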
[2] = test system: daptomycin-susceptible, dose-dependent Enterococcus faecium (NTUH664); assay: Rat infective endocarditis model, DSE; settings: MIC 0.5, group value repeated per rat; for auc_mic: AUC0–24/MIC; for cmax_mic: Cmax/MIC;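 for all read-outs here: male Wistar rats with catheter-induced aortic valve endocarditis, dosed for 3 days, CFU counted in vegetation and blood, saline-treated infected controls, vegetation detection limit 2 log10 CFU/g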

For `CCCCCCCCCC(=O)N[C@@H](Cc1c[nH]c2ccccc12)C(=O)N[C@H](CC(N)=O)C(=O)N[C@@H](CC(=O)O)C(=O)N[C@@H]1C(=O)NCC(=O)N[C@@H](CCCN)C(=O)N[C@@H](CC(=O)O)C(=O)N[C@H](C)C(=O)N[C@@H](CC(=O)O)C(=O)NCC(=O)N[C@H](CO)C(=O)N[C@@H]([C@H](C)CC(=O)O)C(=O)N[C@@H](CC(=O)c2ccccc2N)C(=O)O[C@@H]1C` [daptomycin, Daptomycin], the auc_mic ([1]; 45 mg/kg sc) was 123, the auc_mic ([1]; 90 mg/kg sc) was 257 and the cmax_mic ([1]; 45 mg/kg sc) was 15. For the same molecule, the cmax_mic ([1]; 90 mg/kg sc) was 22, the auc_mic ([2]; 12 mg/kg iv) was 228 and the auc_mic ([2]; 45 mg/kg sc) was 987. For the same molecule, the auc_mic ([2]; 90 mg/kg sc) was 2054, the cmax_mic ([2]; 12 mg/kg iv) was 106 and the cmax_mic ([2]; 45 mg/kg sc) was 123. It also gave a cmax_mic ([2]; 90 mg/kg sc) of 179.
